{"source": "patent US20170128489A1", "about": "(priority 2014, published 2017)", "target": "influenza A M2 channels (A/Udorn/72, S31N mutant) (Influenza A virus, UniProt P0DOF5, S31N)", "assay_type": "cell-based", "conditions": "for EC50 / Percent Block: pH 5.3"}
{"substance": "Copper bispinanamine imidazole [Bis(Pin-Imid)-Cu]", "values": [{"measurement": "Percent Washout", "value": 8, "unit": "%"}, {"measurement": "EC50", "value": 115, "unit": "µM"}, {"measurement": "Percent Block", "value": 45, "unit": "%"}]}
{"substance": "Copper pinanamine imidazole [Pin-Imid-Cu]", "values": [{"measurement": "Percent Washout", "value": 66, "unit": "%"}, {"measurement": "EC50", "value": 39, "unit": "µM"}, {"measurement": "Percent Block", "value": 83, "unit": "%"}]}
{"substance": "Zinc Pinanamine Imidazole [Pin-Imid-Zn]", "values": [{"measurement": "Percent Washout", "value": 22, "unit": "%"}, {"measurement": "EC50", "value": 113, "unit": "µM"}, {"measurement": "Percent Block", "value": 39, "unit": "%"}]}
